Measured values as given in US10500274B2, “Methods for reducing viral load in HIV-1 infected patients” (CytoDyn Inc., priority 2008, dated 2019).

System: HIV-1JR-FL envelope-mediated membrane fusion

## COC[C@@H](c1ccc(C(F)(F)F)cc1)N1CCN(C2(C)CCN(C(=O)c3c(C)ncnc3C)CC2)C[C@@H]1C [SCH-D, 1-[(4,6-dimethyl-5-pyrimidinyl)carbonyl]-4-[4-[2-methoxy-1(R)-4-(trifluoromethyl)phenyl]ethyl-3(S)-methyl-1-piperazinyl]-4-methylpiperidine]
  IC50: 6.1 nM
